The values below are quoted from earlier work in patent US6121315A, “Oral compositions containing a zinc compound” (priority 1999, dated 2000).

For this data set the following is noted: 5% by weight in mineral oil, nine-person taste panel; cited from earlier work.

For `CC1CCC(C(C)C)C(OC(=O)CCC(=O)OC2CC(C)CCC2C(C)C)C1` (stereo not shown) [dimenthyl succinate], the taste and odor entry was “odorless and tasteless”.
